Source: patent US10533018B2, “Antimicrobial prochelators to target drug-resistant bacteria and methods of making and using the same” (Duke University, priority 2015, dated 2020)

Tested on: K. pneumoniae clinical isolates 4 and 9
Assay: LC-MS detection of intact DB4-51 in bacterial culture
Assay type: cell-based
Details: 100 μM, 4 hours

O=C(Cc1ccccc1)N[C@@H]1C(=O)N2C(C(=O)O)=C(CSc3cccc[n+]3[O-])CS[C@H]12 [DB4-51, 2-((((6R,7R)-2-carboxy-8-oxo-7-(2-phenylacetamido)-5-thia-1-azabicyclo[4.2.0]oct-2-en-3-yl)methyl)thio)pyridine 1-oxide]
DB4-51 remained intact (Klebs isolate 4): 90% | DB4-51 remained intact (Klebs isolate 9): less than 15%
